Pooled drug test results. Numbers come from NIAID ChemDB, via PubChem.

Common to all: growth or infection tests

Rows are shuffled and stem from different studies.

SMILES | strain or isolate | tested at | species | method | read-out | result
O=C1N[C@H]2C=C[C@@H]1C2 | AM211 | - | Aspergillus glaucus | - | MIC | 282.4 µg/mL
CCN1CCN(c2nc(Cl)nc(NC3CC3)n2)CC1 | MTCC 1323 | - | Aspergillus clavatus | agar | MIC | 200 µg/mL
Cc1cc(C)nc(Nc2ccccc2)n1 | - | 50 µg/mL | Aspergillus niger | - | zone | 2.9 mm
COc1cccc(C=O)c1O | UAB673 | - | Aspergillus terreus | agar | MIC | 500 µM
COc1ccc(Cn2nc(C3CC3)cc2NC(=O)c2ccc(F)cc2F)cc1 | - | - | Aspergillus ochraceus | - | MIC | 24 µg/mL
CC(=O)c1ccccc1O | - | - | Aspergillus flavus | agar | MIC50 | 142 µg/mL
O=C1OCC2CC=CCC12 | AM211 | - | Aspergillus glaucus | - | MIC | >350 µg/mL
Clc1nc(NC2CC2)nc(N2CCN(c3ccccn3)CC2)n1 | MTCC 1323 | - | Aspergillus clavatus | agar | MIC | 50 µg/mL
COc1c(O)cc2oc(-c3ccc(O)cc3)cc(=O)c2c1O | - | 200 µg/mL | Aspergillus tubingensis | agar diffusion | zone | 0 mm
Cc1ccc(N2NOC(=O)C2S(=O)(=O)Nc2nc3ccc(F)cc3s2)cc1 | MTCC323 | 250 µg/mL | Aspergillus clavatus | agar diffusion | zone | 19 mm
O=C1C(=O)c2ccccc2-c2ccccc21 | KACC 40071 | - | Aspergillus clavatus | visual reading | MIC | 20 µg/mL
COc1ccc(Cn2nc(C3CC3)cc2NC(=O)c2cc([N+](=O)[O-])cc([N+](=O)[O-])c2)cc1 | - | - | Aspergillus ochraceus | - | MIC | 54 µg/mL
Oc1cc(O)cc(O)c1 | - | - | Aspergillus flavus | agar | MIC100 | >1000 µg/mL
CCC(C)n1ncn(-c2ccc(N3CCN(c4ccc(OC[C@H]5CO[C@](Cn6cncn6)(c6ccc(Cl)cc6Cl)O5)cc4)CC3)cc2)c1=O | 60 isolates | - | Aspergillus fumigatus | - | MIC50 | 0.25 µg/mL
C=CCc1ccc(O)c(OC)c1 | - | - | Aspergillus flavus | agar | MIC100 | 478 µg/mL
COc1ccc(-c2csc(NS(=O)(=O)C3C(=O)ONN3c3ccc(C)cc3)n2)cc1 | MTCC323 | - | Aspergillus clavatus | broth dilution | MIC | 500 µg/mL
CC1=C(Cl)C(O)=CC(=O)C12Oc1cc(O)c(Cl)c(C)c1C2=O | MTCC 1323 | - | Aspergillus clavatus | broth dilution | MIC | 100 µg/mL
OC(Cn1cncn1)(Cn1cncn1)c1ccc(F)cc1F | CCAM 080006 | - | Aspergillus oryzae | broth dilution | MFC100 | 5 µg/mL
O=c1[nH]cnc2c1ncn2[C@H]1CC[C@@H](CO)O1 | MTCC 1323 | - | Aspergillus clavatus | agar | MIC | 200 µg/mL
C[C@@H]1[C@H](O)[C@@H](C)/C=C/C=C/CC/C=C/C=C/C=C/C=C/C(O[C@H]2O[C@H](C)[C@@H](O)[C@H](N)[C@@H]2O)CC2O[C@](O)(CC(O)C(O)CCC(O)CC(O)CC(O)CC(=O)O[C@H]1C)CC(O)C2C(=O)O | MTCC 4893 | - | Aspergillus ochraceus | broth dilution | MIC100 | 250 µg/mL
Cc1ccc(N2NOC(=O)C2S(=O)(=O)Nc2nc(-c3c(Cl)cccc3Cl)cs2)cc1 | MTCC323 | - | Aspergillus clavatus | broth dilution | MIC | 500 µg/mL
N#Cc1c[nH]cc1-c1cccc2c1OC(F)(F)O2 | - | 10 µg/mL | Aspergillus tubingensis | agar diffusion | zone | 16.4 mm
Cc1ccc(N2NOC(=O)C2S(=O)(=O)Nc2nc(-c3ccc(F)cc3F)cs2)cc1 | MTCC323 | 250 µg/mL | Aspergillus clavatus | agar diffusion | zone | 25 mm
O=C1C=C(NCCN2CCOCC2)C(=O)c2ccccc21 | MTCC 4893 | - | Aspergillus ochraceus | broth dilution | MIC100 | 125 µg/mL
CCc1ccc(O)cc1 | - | - | Aspergillus flavus | agar | MIC100 | 207 µg/mL
O=C1NC2CC1C1OC21 | AM211 | - | Aspergillus glaucus | - | MIC | 107.1 µg/mL
Fc1ccc(-c2nn(-c3ccccc3)cc2C2=NNC(c3ccc(Br)cc3)C2)cc1 | MTCC 1323 | - | Aspergillus clavatus | - | MIC99 | 50 µg/mL
Cc1ccc(N2NOC(=O)C2S(=O)(=O)Nc2nc3cc(C)ccc3s2)cc1 | MTCC323 | 250 µg/mL | Aspergillus clavatus | agar diffusion | zone | 24 mm
COc1ccc(O)c(C=O)c1 | UAB673 | - | Aspergillus terreus | agar | MIC | 500 µM
O=C/C=C/c1ccccc1 | NRRL 501 | - | Aspergillus flavus | broth dilution | MFC | 160 µg/mL
CC(=Nc1cccc(Br)c1)c1cc(C(C)=Nc2cccc(Br)c2)c(O)cc1O | MTCC 1323 | - | Aspergillus clavatus | broth dilution | MIC | 500 µg/mL
Clc1nc(NC2CC2)nc(N2CCN(c3cccc(Cl)c3Cl)CC2)n1 | MTCC 1323 | - | Aspergillus clavatus | agar | MIC | 100 µg/mL
O=C(O)/C=C/c1ccc(O)c(O)c1 | - | - | Aspergillus flavus | agar | MIC100 | >1000 µg/mL
Cc1ccc(N2NOC(=O)C2S(=O)(=O)Nc2ccc(-n3c(-c4ccc(Cl)cc4)nc4ccccc4c3=O)cc2)cc1 | MTCC323 | - | Aspergillus clavatus | broth dilution | MIC | 200 µg/mL
CCCCC1(CCCC)OC(=O)C2CCCCC21 | AM211 | - | Aspergillus glaucus | - | MIC | 238.6 µg/mL
Cc1ccc(N2NOC(=O)C2S(=O)(=O)Nc2nc(-c3ccc([N+](=O)[O-])cc3)cs2)cc1 | MTCC323 | 250 µg/mL | Aspergillus clavatus | agar diffusion | zone | 18 mm
Clc1ccc(C(c2ccccc2)N2CCN(c3nc(Cl)nc(NC4CC4)n3)CC2)cc1 | MTCC 1323 | - | Aspergillus clavatus | agar | MIC | 100 µg/mL
COc1cc(C=O)cc(OC)c1 | UAB673 | - | Aspergillus terreus | agar | MIC | 1000 µM
Brc1cc(Br)c2ncnc(NCCNc3nc(NC4CC4)nc(N4CCN(c5ccccc5)CC4)n3)c2c1 | MTCC 1323 | - | Aspergillus clavatus | agar | MIC | 100 µg/mL
Cc1ccc(N2NOC(=O)C2S(=O)(=O)Nc2nc3cc(F)ccc3s2)cc1 | MTCC323 | - | Aspergillus clavatus | broth dilution | MIC | 250 µg/mL
Cc1nc(Nc2ccccc2)nc(C)c1C#N | - | 10 µg/mL | Aspergillus niger | - | zone | 1.4 mm
[Al]#[P] | - | - | Aspergillus ochraceus | agar | MFC | 4.5 µg/mL
O=C1C=C(N2CCOCC2)C(=O)c2ccccc21 | MTCC 2797 | - | Aspergillus parasiticus | broth dilution | MIC100 | 125 µg/mL
COc1ccc(Cn2nc(C3CC3)cc2NC(=O)c2cccc(OC)c2)cc1 | - | - | Aspergillus ochraceus | - | MIC | 22 µg/mL

MIC50, MIC90 and the like: level of inhibition, or share of isolates inhibited. Zones are inhibition diameters on agar. An empty or dashed field is not shown.